Experimental findings from article PMC12692169, “Identification of Novel TAT-I24-Related Peptides with Antiviral Activities” (International Journal of Molecular Sciences, 2025) are described below.

Each structure is given as a SMILES string. Residues, ends and D or L forms follow the SMILES beside them.

The subject of the data set is HEK293 cells. The conditions noted are these: Selectivity index CC50/IC50; CC50 from CellTiter-Blue viability in HEK293, 72 h, from 20 µM; IC50 from baculovirus transduction. Background: Alamar Blue is a resazurin reagent that responds to reducing activity.
As for `CC(C)C[C@H](NC(=O)[C@H](CS)NC(=O)[C@H](C)NC(=O)[C@H](Cc1ccc(O)cc1)NC(=O)[C@H](Cc1ccccc1)NC(=O)[C@H](C)NC(=O)[C@H](CC(C)C)NC(=O)[C@H](CCC(N)=O)NC(=O)[C@@H]1CCCN1C(=O)[C@@H]1CCCN1C(=O)[C@H](CCCNC(=N)N)NC(=O)[C@H](CCCNC(=N)N)NC(=O)[C@H](CCCNC(=N)N)NC(=O)[C@H](CCC(N)=O)NC(=O)[C@H](CCCNC(=N)N)NC(=O)[C@H](CCCNC(=N)N)NC(=O)[C@H](CCCCN)NC(=O)[C@H](CCCCN)NC(=O)[C@H](CCCNC(=N)N)NC(=O)CN)C(=O)N[C@@H](C)C(=O)N[C@@H](Cc1ccccc1)C(=O)N[C@@H](CS)C(=O)O` [TAT-M14] (H-GRKKRRQRRRPPQLAFYACLAFC-OH; N-terminus and C-terminus assumed), the “SI [HEK293]” value came out at 766.
In the case of `CC(C)C[C@H](NC(=O)[C@H](CS)NC(=O)[C@H](CCC(N)=O)NC(=O)[C@@H]1CCCN1C(=O)[C@@H]1CCCN1C(=O)[C@H](CCCNC(=N)N)NC(=O)[C@H](CCCNC(=N)N)NC(=O)[C@H](CCCNC(=N)N)NC(=O)[C@H](CCC(N)=O)NC(=O)[C@H](CCCNC(=N)N)NC(=O)[C@H](CCCNC(=N)N)NC(=O)[C@H](CCCCN)NC(=O)[C@H](CCCCN)NC(=O)[C@H](CCCNC(=N)N)NC(=O)CN)C(=O)N[C@@H](C)C(=O)N[C@H](C(=O)N[C@@H](Cc1ccc(O)cc1)C(=O)N[C@@H](CC(=O)O)C(=O)N[C@@H](CS)C(=O)N[C@@H](Cc1ccccc1)C(=O)N[C@H](C(=O)O)C(C)C)C(C)C` [TAT-M17] (H-GRKKRRQRRRPPQCLAVYDCFV-OH; N-terminus and C-terminus assumed) it was 792; in that of `CC(C)C[C@H](NC(=O)[C@H](CS)NC(=O)[C@H](CCC(N)=O)NC(=O)[C@@H]1CCCN1C(=O)[C@@H]1CCCN1C(=O)[C@H](CCCNC(=N)N)NC(=O)[C@H](CCCNC(=N)N)NC(=O)[C@H](CCCNC(=N)N)NC(=O)[C@H](CCC(N)=O)NC(=O)[C@H](CCCNC(=N)N)NC(=O)[C@H](CCCNC(=N)N)NC(=O)[C@H](CCCCN)NC(=O)[C@H](CCCCN)NC(=O)[C@H](CCCNC(=N)N)NC(=O)CN)C(=O)N[C@@H](C)C(=O)N[C@H](C(=O)N[C@@H](Cc1c[nH]cn1)C(=O)N[C@@H](CC(=O)O)C(=O)N[C@@H](CS)C(=O)N[C@@H](Cc1ccccc1)C(=O)N[C@H](C(=O)O)C(C)C)C(C)C` [TAT-M22] (H-GRKKRRQRRRPPQCLAVHDCFV-OH; N-terminus and C-terminus assumed), 138; in that of `CC(C)C[C@H](NC(=O)[C@H](Cc1ccccc1)NC(=O)[C@H](CS)NC(=O)[C@H](Cc1ccccc1)NC(=O)[C@@H]1CCCN1C(=O)[C@H](CO)NC(=O)[C@H](CCC(N)=O)NC(=O)[C@@H]1CCCN1C(=O)[C@@H]1CCCN1C(=O)[C@H](CCCNC(=N)N)NC(=O)[C@H](CCCNC(=N)N)NC(=O)[C@H](CCCNC(=N)N)NC(=O)[C@H](CCC(N)=O)NC(=O)[C@H](CCCNC(=N)N)NC(=O)[C@H](CCCNC(=N)N)NC(=O)[C@H](CCCCN)NC(=O)[C@H](CCCCN)NC(=O)[C@H](CCCNC(=N)N)NC(=O)CN)C(=O)N[C@@H](C)C(=O)N[C@@H](Cc1ccccc1)C(=O)N[C@@H](CS)C(=O)N[C@@H](Cc1ccccc1)C(=O)O` [TAT-T7] (H-GRKKRRQRRRPPQSPFCFLAFCF-OH; N-terminus and C-terminus assumed), 1299.
